Measurements: PMC7036363, “Analysis of HrpG regulons and HrpG‐interacting proteins by ChIP‐seq and affinity proteomics in Xanthomonas campestris”
The exact form of at least one protein or probe is not confirmed.

Target: HrpG (Xanthomonas campestris pv. campestris 8004) (UniProt Q8PBF6)
Assay: EMSA
Details: EMSA: 10 mM Tris-HCl pH 7.5, 50 mM KCl, 1 mM DTT, 50 ng poly(dI:dC), 0-40 uM protein, 28 C 30 min; recombinant protein; label: 32P; probe letters rebuilt from the primers and the genome

Sequence	binding result
AGCATGCAGCAATCACACGCACAAGACATGTTGCAGCGCAGTGGCACGGTGTCCTGTCTCCGCTGTCCATTGCTGTCTCTTTTGCGTGTCTCTCTGCGCGAATGCCGCGGTCTGTCAAATTTCCACAACTGGATAATTGTTTTCTGTTTCAAGACGCGCGAAGAATGCACGCCCCCACGCACCGCGTTGCCGTCGTCATGCACTCGCTGACGCCCTGCAGCGTTTTCGAATTCC (double strand) [XC1298 promoter EMSA probe]	binds
CCGTTATGGTGCTGCGATCGAGCGAAGCGTTGGATCAATCGAGGTGTGCGTCCACGCCGCTGCGTTGCTCGAATCAACGACGATCAGGTGACAGGCATGAAAGAGACCGATACGCCGACCACGTGTGCGTCCGTGCACGGCACGGGTGCTTGGCGTCCACAGTGCTGGGCCACGCTCTGCAGCAACATGCGAGCAGACCAGCGACGCTGTGCGCTTCAGCCCGGGCAGGCTGCTGCCCCTCTGCGACG (double strand) [hpa2p EMSA probe]	binds
GAAGAGAAGTAACGTGGAGCGCTTGTCGGCGCGTTTTGCTTGACCAACGTGGCCAAGGAAATCGATGATCAAGGCATGCTGGCGATGTGCGCGACGATGTCTTGTGCAGCGTTGATGCCGTCGTGCAAGACAATGAAATCGTTGCGCGCAGCCTGATCGCTCGCGGCGGACCAATGCACACGGAGTTGTTGCGCTGTCGCGTGCAGCGCTGCCTCGATGTTGCGCAGTCGCTCGCCTGAGAGATCCTGCGCCTTGGTCTGCAAGATCTTGCTCATATCCTGGGTGAGCGTGTC (double strand) [hrpEp EMSA probe]	binds
GGATTAACGGCCATTTGACATTGAGCGCGAGCGATCGCAGATGTTTAGCGCGCCTTCGCGCATCTGCGTGCCGAACACCGCATCCGTACGCCCACGCATCGTCCTGTGATGCACCGTCAAGATACGCCGGCGCATCGTCTGGCCTTCGTCGCTATGCAGGTGCGGGATCCACTTCGCAGTTTGCAAGACAGAGTGAGAATTTTTGAATTTCTAGCTGCTGCGAAGTGAGAAATTCTATTGGATCCGCTGCATACAATCGTTTGCGCCCACCACAACGGCGCCTTTTGTTGTTTTTGCTCCTCCCCTTCAG (double strand) [hrpXp EMSA probe]	binds
GGCCGCTATTGCTGCACCCCCATTCTGAGCGAGCCGTCGCCGGACGATCCGCTTCCAAGGCGAACGTGTGCATGGGTGTACGAAGCACGACGTGTTTGTTCGCGATGGCATTCCGATGTTCGCTTCTGAAAAGTCTTCGTTGGCGCCGAAGCGTACGTTACGCACGCATGCTGTCCACGGCCATTGAATGAAGAGGTGCGGTATGGAAAAGATTGAATGTCCCGGTTCGGTCGTGAGCGGGCTG (double strand) [hrcUp EMSA probe]	binds
GGCTCTCTCCAGGGCACTGGGGTGCAATGACGCGCTCAGCCCCCCTAGGCCACCGGCGTCGAACGAAACATCACGCCCACCGCGTTGCATGCGTGCGTCTCGGCAGCGCATACACGGCGATCAAGCGTTTGCAATGGGGCCCGCTGCGCGTGTGCGCAGCGGGCGGGTGACACTCAGAACTTGTAGCGCAGGCCCAGCAGGTACTGGCGGCCGGTTTCACCGTATTGCAGCGGCAGCTGGCCGGTGCGCGGCGACGACACCCATTCGTCGGAGGCTTCGTTGGTG (double strand) [XC0124 promoter EMSA probe]	binds
GTTCTCCTGTCAGAACTTGTAGCGCGCGCCGACGTAGTACTGGCGCCCGGTGACGGTGTATTTGTCGGGCAGTTCCAGTGCGGAATCGACGTAGCGGCGGTCGGGGGTATCGAGCAGGTTGATGGCCTCAAACGTCAGCGACAGGTGGTCGCTGATCTTGTAGGACATGTTGAAATCGACGTTTTCCACGCTGTATTTGCCGGTGACATCGGCGGTGGCCAGGCGCTGGCCATCGAGGTTGTAGACGTCTTCCTGGGCGAGGATGTTGTTGATGT (double strand) [XC0125 promoter EMSA probe]	binds
TCCACCAGCTGGTTTTCCACGCGCGAGCGCGCCCAGGTGGTGGCGAAGGCGAACAGCGTCGTCAGGCAGAAGCCCAGCAACACGAACGAGAGAATGATGCGGCTGCGCAGGCGCCGCCGGTAGCGGCCACGCCTGCGGGCGGGCCGCGTTCCGCTGGAGCTCTCAGGCATCGGGCGAGGCGATGCGGTAGCCGATGCCGTGACGGGTCTGGATCATCGGTACGTCGAACGGCTTGTCCACCAC (double strand) [vgrSp EMSA probe]	binds
